In PMC12345164:

Molecular target: T1, SaDinG (Staphylococcus aureus RN4220) (UniProt Q2FYH5)
T1 sequence (looked up): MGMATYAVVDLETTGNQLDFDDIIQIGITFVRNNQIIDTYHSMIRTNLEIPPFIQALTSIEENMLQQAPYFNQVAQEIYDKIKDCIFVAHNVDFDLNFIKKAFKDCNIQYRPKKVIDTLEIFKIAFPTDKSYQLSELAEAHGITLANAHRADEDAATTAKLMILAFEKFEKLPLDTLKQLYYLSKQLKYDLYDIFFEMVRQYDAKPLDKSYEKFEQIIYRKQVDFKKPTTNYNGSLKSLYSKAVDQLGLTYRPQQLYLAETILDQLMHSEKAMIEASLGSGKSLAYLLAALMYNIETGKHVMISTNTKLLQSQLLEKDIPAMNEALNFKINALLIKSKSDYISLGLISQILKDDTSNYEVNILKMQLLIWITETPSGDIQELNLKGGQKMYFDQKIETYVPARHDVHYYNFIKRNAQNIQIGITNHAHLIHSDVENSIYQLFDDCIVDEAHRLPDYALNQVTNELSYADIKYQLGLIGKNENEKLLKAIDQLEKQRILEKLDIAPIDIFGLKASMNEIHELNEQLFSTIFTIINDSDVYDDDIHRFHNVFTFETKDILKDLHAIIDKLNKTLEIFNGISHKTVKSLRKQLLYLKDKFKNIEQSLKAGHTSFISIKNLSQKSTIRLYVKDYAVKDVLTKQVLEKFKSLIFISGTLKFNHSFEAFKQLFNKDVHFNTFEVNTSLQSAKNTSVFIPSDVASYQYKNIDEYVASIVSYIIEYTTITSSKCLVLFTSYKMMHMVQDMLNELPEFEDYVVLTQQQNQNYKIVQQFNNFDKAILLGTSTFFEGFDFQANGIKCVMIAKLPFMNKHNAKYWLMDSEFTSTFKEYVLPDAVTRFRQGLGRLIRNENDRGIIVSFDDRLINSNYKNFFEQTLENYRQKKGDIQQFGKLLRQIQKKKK
Experiment: EMSA
Details: EMSA: 50 mM Tris-HCl pH 8.0, 80 mM NaCl, 1 mM TCEP, 3.2% glycerol, 25 C, 10 min, 100 nM DNA, 5% native PAGE, protein details: 6xHis-TEV tag removed, single-stranded DNA

Sequence	binding result (no added metal, affinity comparable to 5'-FAM DNA, recombinant protein, residues 1-897, label: 3' 6-FAM)	binding result (ATP 0.625-10 mM (Kd increases), recombinant …, residues 1-897, label: 5' 6-FAM)	binding result (no added metal, recombinant protein, residues …, label: 5' 6-FAM)
TTTTTTTTTTTTTTTTTTTT [3'FAM-20 nt poly dT]	binds	–	–
TTTTTTTTTTTTTTTTTTTT [5'FAM-20 nt poly dT]	–	binds more weakly	binds

The exact form of at least one protein or probe is not confirmed. Weaker means in comparison with the reference protein, sequence or condition of that experiment. Tags and fusion partners may be left off the protein sequences shown.
